Plain letter strings leave the end groups untold.
Assay: peptide made by a vendor
Settings: whole synthesis, scale 5 micromole

With WRKWRKRWWWRKWRKRWW the “final HPLC purity” value was greater than 95%.
